Experimental data reported in publication PMC6063448 (PLoS ONE, 2018).
Some peptides are written in HELM: one residue between dots, names in brackets for other building blocks, links after the first $.

Experiment: general procedure: Fmoc solid-phase peptide synthesis; Fmoc-Rink-MBHA resin (0.56 mmol/g); Oxyma/DIC
Conditions: whole synthesis, 220 nm
For “PEPTIDE1{[Cn4].K.K.L.F.K.K.I.L.K.Y.L.[am]}$$$$V2.0”, the “final HPLC purity” value was greater than 99%. For “PEPTIDE1{[Cn6].K.K.L.F.K.K.I.L.K.Y.L.[am]}$$$$V2.0”, the “final HPLC purity” value was greater than 99%. In the case of “PEPTIDE1{[Cn12].K.K.L.F.K.K.I.L.K.Y.L.[am]}$$$$V2.0”, the “final HPLC purity” value is reported as greater than 99%. For “PEPTIDE1{[ac].K.K.L.F.K.K.I.L.K.Y.[KAC3].[am]}$$$$V2.0”, the “final HPLC purity” value was greater than 99%. For “PEPTIDE1{[ac].K.K.L.F.K.K.I.L.K.Y.[KAC5].[am]}$$$$V2.0”, the “final HPLC purity” value was greater than 99%. In the case of “PEPTIDE1{[ac].K.K.L.F.K.K.I.L.K.Y.[KAC11].[am]}$$$$V2.0”, the “final HPLC purity” value is reported as 99%. In the case of “PEPTIDE1{[ac].K.K.L.F.K.K.I.L.K.[KAC3].L.[am]}$$$$V2.0”, the “final HPLC purity” value is reported as greater than 99%. In the case of “PEPTIDE1{[ac].K.K.L.F.K.K.I.L.K.[KAC5].L.[am]}$$$$V2.0”, the “final HPLC purity” value is reported as greater than 99%. With “PEPTIDE1{[ac].K.K.L.F.K.K.I.L.K.[KAC11].L.[am]}$$$$V2.0” the “final HPLC purity” value was greater than 99%. With “PEPTIDE1{[ac].K.K.L.F.K.K.I.L.[KAC3].Y.L.[am]}$$$$V2.0” the “final HPLC purity” value was greater than 99%. In the case of “PEPTIDE1{[ac].K.K.L.F.K.K.I.L.[KAC5].Y.L.[am]}$$$$V2.0”, the “final HPLC purity” value is reported as greater than 99%. In the case of “PEPTIDE1{[ac].K.K.L.F.K.K.I.L.[KAC11].Y.L.[am]}$$$$V2.0”, the “final HPLC purity” value is reported as greater than 99%. For “PEPTIDE1{[ac].K.K.L.F.K.K.I.[KAC3].K.Y.L.[am]}$$$$V2.0”, the “final HPLC purity” value was greater than 99%. For “PEPTIDE1{[ac].K.K.L.F.K.K.I.[KAC5].K.Y.L.[am]}$$$$V2.0”, the “final HPLC purity” value was greater than 99%. With “PEPTIDE1{[ac].K.K.L.F.K.K.I.[KAC11].K.Y.L.[am]}$$$$V2.0” the “final HPLC purity” value was greater than 99%. For “PEPTIDE1{[ac].K.K.L.F.K.K.[KAC3].L.K.Y.L.[am]}$$$$V2.0”, the “final HPLC purity” value was greater than 99%. For “PEPTIDE1{[ac].K.K.L.F.K.K.[KAC5].L.K.Y.L.[am]}$$$$V2.0”, the “final HPLC purity” value was greater than 99%. In the case of “PEPTIDE1{[ac].K.K.L.F.K.K.[KAC11].L.K.Y.L.[am]}$$$$V2.0”, the “final HPLC purity” value is reported as greater than 99%. For “PEPTIDE1{[ac].K.K.L.F.K.[KAC3].I.L.K.Y.L.[am]}$$$$V2.0”, the “final HPLC purity” value was greater than 99%. In the case of “PEPTIDE1{[ac].K.K.L.F.K.[KAC5].I.L.K.Y.L.[am]}$$$$V2.0”, the “final HPLC purity” value is reported as greater than 99%. With “PEPTIDE1{[ac].K.K.L.F.K.[KAC11].I.L.K.Y.L.[am]}$$$$V2.0” the “final HPLC purity” value was 97%. In the case of “PEPTIDE1{[ac].K.K.L.F.[KAC3].K.I.L.K.Y.L.[am]}$$$$V2.0”, the “final HPLC purity” value is reported as greater than 99%. For “PEPTIDE1{[ac].K.K.L.F.[KAC5].K.I.L.K.Y.L.[am]}$$$$V2.0”, the “final HPLC purity” value was greater than 99%. For “PEPTIDE1{[ac].K.K.L.F.[KAC11].K.I.L.K.Y.L.[am]}$$$$V2.0”, the “final HPLC purity” value was greater than 99%. For “PEPTIDE1{[ac].K.K.L.[KAC3].K.K.I.L.K.Y.L.[am]}$$$$V2.0”, the “final HPLC purity” value was greater than 99%. In the case of “PEPTIDE1{[ac].K.K.L.[KAC5].K.K.I.L.K.Y.L.[am]}$$$$V2.0”, the “final HPLC purity” value is reported as greater than 99%. In the case of “PEPTIDE1{[ac].K.K.L.[KAC11].K.K.I.L.K.Y.L.[am]}$$$$V2.0”, the “final HPLC purity” value is reported as greater than 99%. In the case of “PEPTIDE1{[ac].K.K.[KAC3].F.K.K.I.L.K.Y.L.[am]}$$$$V2.0”, the “final HPLC purity” value is reported as greater than 99%. With “PEPTIDE1{[ac].K.K.[KAC5].F.K.K.I.L.K.Y.L.[am]}$$$$V2.0” the “final HPLC purity” value was greater than 99%. With “PEPTIDE1{[ac].K.K.[KAC11].F.K.K.I.L.K.Y.L.[am]}$$$$V2.0” the “final HPLC purity” value was 97%. In the case of “PEPTIDE1{[ac].K.[KAC3].L.F.K.K.I.L.K.Y.L.[am]}$$$$V2.0”, the “final HPLC purity” value is reported as greater than 99%. With “PEPTIDE1{[ac].K.[KAC5].L.F.K.K.I.L.K.Y.L.[am]}$$$$V2.0” the “final HPLC purity” value was 92%. In the case of “PEPTIDE1{[ac].K.[KAC11].L.F.K.K.I.L.K.Y.L.[am]}$$$$V2.0”, the “final HPLC purity” value is reported as greater than 99%. In the case of “PEPTIDE1{[ac].[KAC3].K.L.F.K.K.I.L.K.Y.L.[am]}$$$$V2.0”, the “final HPLC purity” value is reported as greater than 99%. For “PEPTIDE1{[ac].[KAC5].K.L.F.K.K.I.L.K.Y.L.[am]}$$$$V2.0”, the “final HPLC purity” value was greater than 99%. In the case of “PEPTIDE1{[ac].[KAC11].K.L.F.K.K.I.L.K.Y.L.[am]}$$$$V2.0”, the “final HPLC purity” value is reported as greater than 99%.
